1 molecule from patent US7939064B2 (priority 2006, dated 2011) can be followed below.

For series [1], the system named is organotypic hippocampal slices. Particulars: NsPLA2 2 ug/ml during insult period (90 mins); CA2/3 region.
Series [2] deals with organotypic hippocampal slices. Briefly: NMDA, KA and AMPA insult in organotypic hippocampal culture. Particulars: 3 hr, NsPLA2 2 ug/ml concurrently.
Series [3] relates to organotypic hippocampal slices. In words: LDH cytotoxicity assay in glutamate-insulted organotypic hippocampal culture.
In series [4] the test system is organotypic hippocampal slices. Briefly: Glutamate insult in organotypic hippocampal slice culture, propidium iodide uptake. Particulars: glutamate 5 mM, 3 hours.

B1: NsPLA2 (protein)
chain: NLYQFKNMVQCTVPNRSWWHFADYGCYCGRGGSGTPVDDLDRCCQIHDNCYNEAEKISRCWPYFKTYSYECSQGTLTCKGGNNACAAAVCDCDRLAAICFAGAPYNDNNYNIDLKARCQ
modifications: Naja sputatrix
B1: the “protection (neuroprotection in OGD)” value in series [1] is 95%. In addition, the “protection of the CA1 region” value in series [2] (10 uM AMPA) worked out at 30%; in series [2] (20 uM NMDA), 70%. The “neuroprotection at the CA3 region” value in series [2] (100 uM KA) amounted to 50%. Also, the “cytotoxicity (LDH assay) compared to untreated control with glutamate insult” value in series [3] is recorded as “reduced cytotoxicity”. Further, the “neuroprotection in glutamate induced neuronal injury compared with positive control MK801” value in series [4] is “higher than that produced by the positive control”.
